Laboratory results: PubChem BioAssay AID492967 (ICCB-Longwood Screening Facility, Harvard Medical School, 2010)
The list shows a part of the results, in another mix than the full data. Activity calls are given as the source filed them. Rule as the data show it: active = z-score mostly below about -2.9 (no sharp cut-off); inactive = mostly above about -1.9.

The compounds below were run on CapD gamma-glutamyltranspeptidase (Bacillus anthracis Ames Ancestor) (assay: inhibition of CapD gamma-glutamyltranspeptidase – biochemical, fluorescence intensity, primary screen (AID 492967)). Details: purified CapD enzyme, fluorescence intensity read-out; stronger effect = lower value.
For `CCc1nc2c(n1)c1c(non1O)c1c2no[n+]1[O-]`, the z-score was inactive: -3.63. In the case of `CP(=O)(Nc1ccc(Cl)cc1)Oc1ccc(F)cc1` (centres undefined), the z-score is reported as inactive: -0.255. With `CCOP(OCC)N1CCOCC1` the z-score was inactive: -0.15. In the case of `O=CC1c2cc([N+](=O)[O-])cc([N+](=O)[O-])c2-c2c1cc([N+](=O)[O-])cc2[N+](=O)[O-]`, the z-score is reported as inactive: -0.35. With `Cc1[nH]c2c(N(C(=O)c3cc(Cl)nc(Cl)c3)C3CCN(Cc4ccccc4)CC3)cccc2c1C` the z-score was inactive: -0.635. With `CC(=O)OC=C1c2cc([N+](=O)[O-])cc([N+](=O)[O-])c2-c2c1cc([N+](=O)[O-])cc2[N+](=O)[O-]` the z-score was inactive: -0.165. `CP(=O)(Nc1ccccn1)Oc1ccccc1` (centres undefined) was tested, and the z-score was inactive: -0.015. `Nc1cc(N)c2nonc2c1[N+](=O)[O-]` was tested, and the z-score was inactive: -1.33. For `CCOP(=Nc1nc2ccccc2n2nnnc12)(OCC)OCC`, the z-score was inactive: -0.44. With `N#Cc1cc([N+](=O)[O-])cc2c1-c1c(cc([N+](=O)[O-])cc1[N+](=O)[O-])C2=O` the z-score was inactive: -0.925. With `CC(=O)N1CCc2ccc(N(C(=O)c3cccs3)C3CCN(Cc4ccccc4)CC3)cc21` the z-score was inactive: 0.45. With `CN(C)c1cc2c(c([N+](=O)[O-])c1)-c1c(cc([N+](=O)[O-])cc1[N+](=O)[O-])C2=O` the z-score was inactive: 0.4. `COC(=O)N(c1ccccc1)P1(=S)OCC(C)O1` (centres undefined) was tested, and the z-score was inactive: 0.03. For `O=C(OC1/C(=C/c2ccccc2F)N2CCC1CC2)c1ccccc1` (centres undefined), the z-score was inactive: 0.18. With `CN(C)C(=O)Oc1noc2ccccc12` the z-score was inactive: -0.38. `Cc1[nH]c2c(N(C(=O)Nc3ccccc3)C3CCN(Cc4ccccc4)CC3)cccc2c1C` was tested, and the z-score was inactive: -0.295. With `O=C(OC1CN2CCC1CC2)c1ccccc1` (centres undefined) the z-score was inactive: 0.31. With `COc1cc2c(cc1NP(C)(=O)Oc1ccccc1)oc1ccccc12` (centres undefined) the z-score was inactive: -0.375. For `O=P1(Nc2nc3ccc(Cl)cc3s2)COc2ccccc2O1` (centres undefined), the z-score was inactive: -1.17. In the case of `O=C(OCCN1CCN(CCOCc2ccccc2)CC1)C(O)(c1ccccc1)c1ccccc1`, the z-score is reported as inactive: 0.415. In the case of `O=[N+]([O-])c1cc([N+](=O)[O-])c(Sc2nc3ccccc3s2)c([N+](=O)[O-])c1`, the z-score is reported as inactive: -3.38. `CC(=O)OC1CN2CCC1C(c1ccccc1)C2` (centres undefined) was tested, and the z-score was inactive: 0.7. For `Cc1ccc(NP(=O)(/N=c2\nc(-c3ccccc3)n(-c3ccccc3)s2)Nc2ccc(C)cc2)cc1`, the z-score was inactive: -0.425. In the case of `O=[N+]([O-])c1cc2c(c([N+](=O)[O-])c1)-c1c(cc([N+](=O)[O-])cc1[N+](=O)[O-])C2=NO`, the z-score is reported as inactive: 0.2. For `C/C1=C2N=C(/C=C3N=C(/C(C)=C4\[N-][C@@](C)([C@@H]5N=C1[C@](C)(CCC(=O)NC[C@@H](C)OP(=O)([O-])O[C@H]1[C@@H](O)[C@@H](n6cnc7cc(C)c(C)cc76)O[C@@H]1CO)[C@H]5CC(N)=O)[C@@](C)(CC(N)=O)[C@@H]4CCC(N)=O)[C@@](C)(CC(N)=O)[C@@H]\3CCC(N)=O)C(C)(C)[C@@H]/2CCC(N)=O.[C-]#N.[Co+3]`, the z-score was inactive: 1.47. With `Cc1ccccc1NP(C)(=O)Nc1ccccc1C` the z-score was inactive: -0.225. With `CC(=O)N1CCc2cc(N(C(=O)c3cccs3)C3CCN(Cc4ccccc4)CC3)ccc21` the z-score was inactive: 0.45. `Nc1nonc1OCc1nonc1COc1nonc1N` was tested, and the z-score was inactive: 0.06. With `CC(=O)OC1(C#N)CN2CCC1CC2` (centres undefined) the z-score was inactive: 0.04. In the case of `C=CCN1CCN(CCOC(=O)C(O)(c2ccccc2)c2ccccc2)CC1`, the z-score is reported as inactive: 0.165. In the case of `CCNC(=O)N(c1ccc2c(c1)N(C(C)=O)CC2)C1CCN(Cc2ccccc2)CC1`, the z-score is reported as inactive: 0.13. In the case of `CCNC(=O)N(c1ccc2[nH]c(C(C)(C)CC)cc2c1)C1CCN(Cc2ccccc2)CC1`, the z-score is reported as inactive: -0.335. `Cc1ccc(C(=O)OC2CN3CCC2CC3)cc1` (centres undefined) was tested, and the z-score was inactive: -0.03. `CC1(C)COP(=S)(N(C2=NCCC2)c2ccccc2)OC1` was tested, and the z-score was inactive: -0.04. With `O=C(OC1/C(=C/c2ccccc2F)N2CCC1CC2)c1ccc([N+](=O)[O-])cc1` (centres undefined) the z-score was inactive: -0.58. For `Cc1cc(C)cc(OP(C)(=O)Nc2ccc(OC(C)C)cc2)c1` (centres undefined), the z-score was inactive: 0.01. For `Nc1nonc1-c1no[n+]([O-])c1-c1nonc1N`, the z-score was inactive: -1.75. In the case of `O=P1(Nc2ccccn2)COc2ccccc2OC1`, the z-score is reported as inactive: -0.035. `Cc1cccc(OCC(=O)OC2CN3CCC2CC3)c1` (centres undefined) was tested, and the z-score was inactive: 22.7. In the case of `COc1cc(-n2cnnn2)ccc1-n1cnnn1`, the z-score is reported as inactive: -0.005. `O=C(OC1CN2CCC1CC2)c1ccc(Cl)cc1` (centres undefined) was tested, and the z-score was inactive: 0.225. With `CC1(C)Nc2ccccc2OP1(=O)c1ccccc1` (centres undefined) the z-score was inactive: 0.09. `CCNC(=O)N(c1ccc2c(c1)CCN2S(C)(=O)=O)C1CCN(Cc2ccccc2)CC1` was tested, and the z-score was inactive: -0.785. In the case of `NC(=O)Nc1ccc([As](=O)(O)O)cc1`, the z-score is reported as inactive: 0.53. In the case of `O=P1(Nc2nc3ccc(Cl)cc3s2)COc2ccccc2OC1`, the z-score is reported as inactive: -0.075. In the case of `O=[N+]([O-])c1ccc(NN=C2c3cc([N+](=O)[O-])cc([N+](=O)[O-])c3-c3c2cc([N+](=O)[O-])cc3[N+](=O)[O-])cc1`, the z-score is reported as inactive: -0.265. With `CC1=Nc2ccc(C(F)(F)F)cc2C1(C)C` the z-score was inactive: 3.88. For `O=C(O)C1(O)c2ccccc2-c2ccccc21`, the z-score was inactive: 0.52. With `Cc1cc(C)cc(OP(C)(=O)NCc2ccccc2)c1` (centres undefined) the z-score was inactive: -0.35. With `Nc1nonc1OCCOc1nonc1N` the z-score was inactive: -0.115. In the case of `CN(C)P1(=O)Nc2ccccc2S1` (centres undefined), the z-score is reported as inactive: -1.6. For `COP(=O)(OC)C(NC(=O)c1ccc(C)cc1)=C(Cl)Cl`, the z-score was inactive: 0.07. With `O=C(OC1CN2CCC1CC2)C12CC3CC(CC(C3)C1)C2` (centres undefined) the z-score was inactive: 0.255. In the case of `CCn1cccc/c1=N\P1(=S)OCCO1`, the z-score is reported as inactive: 4.54. For `CCCOC=C1c2cc([N+](=O)[O-])cc([N+](=O)[O-])c2-c2c1cc([N+](=O)[O-])cc2[N+](=O)[O-]`, the z-score was inactive: 5.78. In the case of `O=C(OC1/C(=C/c2ccccc2F)N2CCC1CC2)c1c(F)cccc1F` (centres undefined), the z-score is reported as inactive: -0.35. In the case of `O=C(O)CCC(=O)N=S(c1ccccc1)c1ccccc1.O=[N+]([O-])c1cc([N+](=O)[O-])c(O)c([N+](=O)[O-])c1`, the z-score is reported as inactive: -1.98. In the case of `Cc1nn2c(c1[N+](=O)[O-])n1nc(C)c([N+](=O)[O-])c1n1nc(C)c([N+](=O)[O-])c21`, the z-score is reported as inactive: -1.44. `CP(=O)(Nc1ccc(Cl)cc1)Oc1ccccc1` (centres undefined) was tested, and the z-score was inactive: -0.16.
